Reference: paper PMC10657408, “c-di-GMP inhibits the DNA binding activity of H-NS in Salmonella” (Nature Communications, 2023)
For part of these data: Protein sequences can lack the tags named with them.

Tests used:
H-NS [1] = biological target: T1, H-NS (UniProt P0A1S2); assay: ITC; details: ITC: 25 mM Tris-HCl, 150 mM NaCl, pH 7.5, 20 C, 100 uM DNA into 10 uM protein; recombinant protein; residues 1-137; probe letters rebuilt from the primers and the genome
T1 sequence (looked up): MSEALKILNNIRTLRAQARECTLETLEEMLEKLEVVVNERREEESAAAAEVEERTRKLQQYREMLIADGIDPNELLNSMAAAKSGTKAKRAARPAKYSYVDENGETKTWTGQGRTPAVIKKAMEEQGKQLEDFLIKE

H-NS [2] = biological target: T1, H-NS; assay: EMSA; details: EMSA: 20 mM Tris-HCl, 4 mM MgCl2, 100 mM NaCl, 1 mM DTT, 1% NP-40, 10% glycerol, pH 7.4, room temperature, recombinant protein, probe letters rebuilt from the primers and the genome
H-NS K107A = H-NS K107A (UniProt P0A1S2); assay: EMSA; details: EMSA: 20 mM Tris-HCl, 4 mM MgCl2, 100 mM NaCl, 1 mM DTT, 1% NP-40, 10% glycerol, pH 7.4, room temperature, recombinant protein, residues 1-137, probe letters rebuilt from the primers and the genome

Sequence: CAAGAAGGATTATGCGGCGTCATTGCTAAAAGGTTCAATTATTCTTTATCCTCAGTCCGGATTCGGACATGAATTAAAAAGACGTAATAAAAGGAAGTTTTATAATTGAAAAGCATTCTTTTTCATGACCTTACAAGAAAATAAAAAAACAAAATACATATAAGATAAATATAGATTAAAGAAAAACAAAATAAACATGAATAATGTTAAAACCCACATTTACTTAAATGACGATGAAATAAAACTAAAAACAACGTAAAACTAATTCTTATTTAAAATGATATAGTGCCTGAGGTATTAA (double strand) [PyaiU]
- Kd (H-NS [1]): 290 nM
- binding result (H-NS [2]; residues 1-137): binds
- binding result (H-NS [2]; c-di-AMP or cGMP, residues …): binds
- binding result (H-NS [2]; c-di-GMP added after complex formation, residues 1-137): binds
- binding result (H-NS K107A): binds
- binding result (H-NS K107A; c-di-GMP added simultaneously): binds
